Consider 1 substance from US20080095796A1, “Novel Infectious Burasal Disease Virus And Vaccine Containing Said Virus” (published 2008).

In the assay the target is IBD virus K strain (attenuated live vaccine strain) (infectious bursal disease virus K strain).

In turn, “serum of untreated control SPF chickens (Example 9) (polyclonal serum or antibody)” had a Neutralizing Antibody titer (Fold, GM value) of 1 Fold.
